Experimental data published in PMC13232947, “Structural basis for sarbecovirus Rc-o319 spike adaptation to Rhinolophus cornutus Bat ACE2 and constraints on switching to human ACE2” (2026).

What was measured:
[1] = molecular target: dimeric His-tagged Rhinolophus cornutus bat ACE2 (bACE2_(R.cor)), Rhinolophus cornutus
[2] = molecular target: dimeric Fc-tagged bACE2_(R.cor) (Rhinolophus cornutus)
[3] = molecular target: Fc-tagged Rhinolophus cornutus ACE2 (bACE2R.cor-WT-Fc), AA 1-731 (Rhinolophus cornutus)

For Rc-o319-RBD-Fc (wild type), the Kd [1] was 0.241 µM.
Monomeric BANAL-20-236-RBD was tested, and the Kd [2] was 0.981 µM.
monomeric BANAL-20-236 RBD was tested, and the Kd [3] was 0.981 µM, the koff [3] was 0.0113 s⁻¹ and the kon [3] was 11500 M⁻¹ s⁻¹.
